Experimental data taken from publication PMC6215995 (International Journal for Parasitology: Drugs and Drug …, 2018).

Key:
P. falciparum 3D7 = assay: Antiplasmodial SYBR green assay, CQ-sensitive strain; format: cell-based; details: ratio between MDL50 and IC50, 3D7
Description: Briefly, the plates were centrifuged at 700g for 5 min at room temperature to remove the medium, washed with PBS and incubated for 30 min with lysis buffer solution [2.4228 g TRIS, ultra-pure for 20 mM solution, pH 7.5; 1.8612 g of EDTA 5 mM ultrapure for 5 mM solution; 80 μg Saponin (0.008% w/v); 800 μL of Triton X-100 (0.08% v/v); water Type I] and SYBR green I DNA stain (1:20000). The fluorescence of uninfected erythrocytes was considered as background.
(§1) The half-maximal drug inhibitory concentration (IC50) was estimated by curve fitting using the software from the OriginLab Corporation (USA) and compared to the parasite growth in the drug-free medium.

P. falciparum K1 = assay: Antiplasmodial SYBR green assay, multidrug-resistant strain; format: cell-based; details: ratio between MDL50 and IC50, K1
Description: The freshly sorbitol synchronized ring stages were immediately incubated with the test compounds at various concentrations (from 10 to 0.152 μM or 1.0–0.0152 μM) that were previously solubilized in 0.05% dimethyl sulfoxide (DMSO) (v/v) ([Lambros and Vanderberg, 1979]). […] The antiplasmodial activity of the compounds was measured through SYBR green assay ([Smilkstein et al., 2004]). Briefly, the plates were centrifuged at 700g for 5 min at room temperature to remove the medium, washed with PBS and incubated for 30 min with lysis buffer solution [2.4228 g TRIS, ultra-pure for 20 mM solution, pH 7.5; 1.8612 g of EDTA 5 mM ultrapure for 5 mM solution; 80 μg Saponin (0.008% w/v); 800 μL of Triton X-100 (0.08% v/v); water Type I] and SYBR green I DNA stain (1:20000). The fluorescence of uninfected erythrocytes was considered as background. Fluorescence was measured on fluorimeter (SpectraMax340PC384) at 485/535 nm.
as §1

| Substance | Selective index 3D7 (P. falciparum 3D7) | Selective index K1 (P. falciparum K1) |
| --- | --- | --- |
| N-(4-(dimethylamino)but-2-enyl)-7-chloro-quinolin-4-amine [DAQ] | 32195 | 29620 |
| N-(prop-2-enyl)-7-chloroquinoline-4-amine [PCQ] | 1079 | 1005 |
